Anti-infective test results gathered from many reports (values: NIAID ChemDB through PubChem).

Common to all: tests in culture; species: Candida krusei; read by: broth dilution; measure: MIC

Blank or dashed fields: not listed here. Neighbouring rows are from separate reports.

COC(=O)c1c(N)oc2c(C)c(C)c(O)c(Sc3ccccc3)c12 ; strain or isolate: KCCM 11655 ; result: 3.2 µg/mL
COc1cc(NC(C)CCCNC(=O)CC(NC(=O)[C@H](N)CCCN)C(=O)O)c2nc(C(C)(C)C)ccc2c1 ; result: >20 µg/mL
Cc1coc2c1C(=O)[C@@H]1[C@@](C)(C2)[C@H](O)CC[C@@]1(C)O ; strain or isolate: ATCC 6258 ; result: >256 µg/mL
CCCCCCCCCCCC[n+]1cccc2ccccc21 ; setting: 48 h ; strain or isolate: E28 ; result: 0.01562 µg/mL
CCOc1ccc2nc3cc(N=C4NC(=O)/C(=C\C=C\c5ccc([N+](=O)[O-])o5)S4)ccc3c(N)c2c1 ; result: 500 µg/mL
CCCCCCCCCCCCCCCC(=O)NC(CCCCN)C(=O)NC(CCCCN)C(N)=O ; strain or isolate: 4684 ; result: 1 µg/mL
COC(=O)c1c(N)oc2c(C)c(C)c(O)c(Sc3cccc(C)c3)c12 ; strain or isolate: KCCM 11655 ; result: 3.2 µg/mL
CC(C)C(NC(=O)C(N)Cc1ccccc1)C(=O)NC(Cc1ccc(O)cc1)C(=O)O ; strain or isolate: ATCC 6258 ; result: 350 µg/mL
CCC[CH2][Sn+3].Fc1ccccc1N=C([S-])N/N=C(\c1ccccc1)c1ccccn1 ; strain or isolate: ATCC 200298 ; result: 53.68 µM
O=C(/C=C/c1ccc(Cl)c(Cl)c1)c1c[nH]c2ccccc12 ; strain or isolate: NRRL Y-7179 ; result: 200 µg/mL
Cc1ccc(NC2=C(Cl)C(=O)c3nc(C)sc3C2=O)cc1 ; strain or isolate: KCCM 11655 ; result: 6.3 µg/mL
OC(Cn1cncn1)(Cn1cncn1)c1ccc(F)cc1F ; strain or isolate: KCCM 11655 ; result: 3.2 µg/mL
Nc1scc2c1c(=O)oc1ccc3ccccc3c12 ; strain or isolate: ATCC 6258 ; result: 256 µg/mL
Cc1ccc(C(O)c2cccc(C(=O)CCn3ccnc3)c2)cc1 ; strain or isolate: RTCC 1090 ; result: >64 µg/mL
C[C@H]1[C@H](O)[C@@H](C)/C=C/C=C/C=C/C=C/C=C/C=C/C=C/[C@H](O[C@@H]2O[C@H](C)[C@@H](O)[C@H](N)[C@@H]2O)C[C@@H]2O[C@](O)(C[C@@H](O)C[C@@H](O)CC[C@H](O)[C@@H](O)C[C@@H](O)CC(=O)O[C@H]1C)C[C@H](O)[C@H]2C(=O)O ; strain or isolate: ATCC 6258 ; result: 0.25 µg/mL
Cc1ccc(C(O)c2cccc(C(O)CCn3ccnc3)c2)cc1 ; strain or isolate: RTCC 1090 ; result: >64 µg/mL
Cc1coc2c1C(=O)[C@@H]1[C@](C)([C@H](O)CC[C@@]1(C)O)[C@@H]2O ; strain or isolate: ATCC 6258 ; result: >256 µg/mL
O=C(/C=C/c1cccc(Cl)c1Cl)c1c[nH]c2ccccc12 ; strain or isolate: NRRL Y-7179 ; result: 200 µg/mL
O=c1c(N2CCOCC2)c(N2CCN(S(=O)(=O)Cc3ccccc3)CC2)cnn1-c1ccccc1 ; strain or isolate: C245 ; result: 25 µg/mL
OC(CCn1ccnc1)c1cccc(C(O)c2ccc(Br)cc2)c1 ; strain or isolate: RTCC 1001 ; result: >64 µg/mL
CC1=C2C[C@@H]3[C@](C)(CCC[C@@]3(C)O)C[C@]2(O)OC1=O ; strain or isolate: ATCC 6258 ; result: >256 µg/mL
O=C(O[C@@H]1COC(=O)c2cc(O)c(O)c(O)c2-c2c(cc(O)c(O)c2O)C(=O)OC1C1OC(=O)c2cc(O)c(O)c(O)c2-c2c(O)c(O)c(O)c3c2C(=O)OC1[C@H]3O)c1cc(O)c(O)c(O)c1 ; strain or isolate: ATCC 6258 ; result: 26 µg/mL
Cc1ccc(N2N=C(c3c[nH]c4ccccc34)CC2c2ccc(Cl)cc2Cl)cc1 ; strain or isolate: NRRL Y-7179 ; result: 200 µg/mL
O=C1C=CC[C@H](/C=C/c2ccccc2)O1 ; result: 62.1 µg/mL
O=c1cc(-c2ccc(O)c(O)c2)oc2cc(O)c([C@@H]3O[C@H](CO)[C@@H](O)[C@H](O)[C@H]3O)c(O)c12 ; strain or isolate: ATCC 6258 ; result: 500 µg/mL
COc1ccc(NC2=C(Cl)C(=O)c3nc(C)sc3C2=O)cc1 ; strain or isolate: KCCM 11655 ; result: 6.3 µg/mL
CCC[CH2][Sn+3].[S-]C(=Nc1ccccc1Cl)N/N=C(\c1ccccc1)c1ccccn1 ; strain or isolate: ATCC 200298 ; result: 26.12 µM
Cc1ccc(N2N=C(c3c[nH]c4ccccc34)CC2c2c(Cl)cccc2Cl)cc1 ; strain or isolate: NRRL Y-7179 ; result: 50 µg/mL
OC(CCn1ccnc1)c1cccc(C(O)c2ccc(Cl)cc2)c1 ; strain or isolate: RTCC 1001 ; result: >64 µg/mL
CCCC[C@@H](C)/C=C(C)/C=C(\C)C(=O)N/C(=C/[C@@](C)(O)/C=C/C=C/C=C/C(=O)NC1=C(O)CCC1=O)C(=O)[C@@H]1CO1 ; strain or isolate: 2 ; result: 25 µM
CCC[CH2][Sn+3].O=[N+]([O-])c1ccccc1N=C([S-])N/N=C(\c1ccccc1)c1ccccn1 ; strain or isolate: ATCC 200298 ; result: 6.42 µM
CC(C)(O)c1cn(-c2ccc(Cl)cc2)nn1 ; strain or isolate: URM 4802 ; result: 256 µg/mL
C[C@H]1[C@H](O)[C@@H](C)/C=C/C=C/C=C/C=C/C=C/C=C/C=C/[C@H](O[C@@H]2O[C@H](C)[C@@H](O)[C@H](N)[C@@H]2O)C[C@@H]2O[C@](O)(C[C@@H](O)C[C@@H](O)CC[C@H](O)[C@@H](O)C[C@@H](O)CC(=O)O[C@H]1C)C[C@H](O)[C@H]2C(=O)O ; setting: 24 h ; strain or isolate: NBRC 1395 ; result: 0.5 µg/mL
O=C(CCn1ccnc1)c1cccc(C(O)c2ccc(Cl)c(Cl)c2)c1 ; strain or isolate: RTCC 1090 ; result: 64 µg/mL
C[C@H]1[C@H](O)[C@@H](C)/C=C/C=C/C=C/C=C/C=C/C=C/C=C/[C@H](O[C@@H]2O[C@H](C)[C@@H](O)[C@H](N)[C@@H]2O)C[C@@H]2O[C@](O)(C[C@@H](O)C[C@@H](O)CC[C@H](O)[C@@H](O)C[C@@H](O)CC(=O)O[C@H]1C)C[C@H](O)[C@H]2C(=O)O ; strain or isolate: 14243 ; result: 0.125 µg/mL
OC(CCn1ccnc1)c1cccc(C(O)c2ccc(Cl)c(Cl)c2)c1 ; strain or isolate: RTCC 1001 ; result: >64 µg/mL
Cc1nc2c(s1)C(=O)C(Nc1ccc(Br)cc1)=C(Cl)C2=O ; strain or isolate: KCCM 11655 ; result: 12.5 µg/mL

A second listing of 2 rows from above:

smiles	setting	strain or isolate	result
OC(Cn1cncn1)(Cn1cncn1)c1ccc(F)cc1F	-	KCCM 11655	3.2 µg/mL
O=C(/C=C/c1cccc(Cl)c1Cl)c1c[nH]c2ccccc12	-	NRRL Y-7179	200 µg/mL